Results of unrelated studies side by side (data: NIAID ChemDB).

Shared fields: growth or infection tests; organism: Influenza A virus

ECn is the concentration giving n% inhibition of infection, replication or growth.

compound | cell line | strain | tested at | endpoint | value
CO[C@@H]1[C@H](C)OC(O[C@H]2CC(Oc3cc4cc5c(c(O)c4c(O)c3C)C(=O)[C@@H](OC3C[C@@H](OC4C[C@H](OC6C[C@](C)(O)[C@@H](OC(C)=O)[C@H](C)O6)[C@@H](O)[C@H](C)O4)[C@H](O)[C@@H](C)O3)[C@H]([C@@H](OC)C(=O)[C@@H](O)[C@H](C)O)C5)O[C@@H](C)[C@H]2OC(C)=O)C[C@@H]1O | CEF | H7N1 avian/Ulster 73 | 0.5 µg/mL | inhibition | <100%
NC12CC3CC(CC(C3)C1)C2 | Chick embryo fibroblasts | A2 JAPAN | 100 µM | inhibition | >70%
NC(=O)c1ncn([C@@H]2O[C@H](CO)[C@@H](O)[C@H]2O)n1 | MDCK | A/Singapore/1/57 |  | EC50 | 70 µM
CC(N)C12CC3CC(CC(C3)C1)C2 | MDCK | H2N2 A2 JAPAN/305/57 |  | EC50 | 13.9 µM
CN1CCC2(C1)C1CCCC2CCC1 | Chick embryo fibroblasts | A2 JAPAN | 100 µM | inhibition | 40–70%
NC12CC3CC(CC(C3)C1)C2 | MDCK | H2N2 Takathuki/4/65 |  | EC50 | 0.19 µg/mL
CC(N)C12CC3CC(CC(C3)C1)C2 | MDCK | H2N2 A/Singapore/1/57 |  | EC50 | 0.45 µM
CC(=O)N[C@H]1[C@H]([C@H](O)[C@H](O)CO)OC(C(=O)O)=C[C@@H]1N=C(N)N | MDCK | H2N2 A/Singapore/1/57 |  | EC50 | 0.014 µM
CCOC(=O)C12CC3CC(CC(C3)C1)C2 | MDCK | H2N2 A2 JAPAN/305/57 |  | EC50 | >196 µM
NC(N)=Nc1nncs1 | MDCK | A/ANN ARBOR |  | EC50 | 2.3 µg/mL
C[NH2+]C12CC3CC(C)(CC(C)(C3)C1)C2 | MDCK | H2N2 A/Singapore/1/57 | 8 µg/mL | inhibition | 100%
CN(C)CCN1CCCCC1C12CC3CC(CC(C3)C1)C2 | MDCK | H2N2 A2 JAPAN/305/57 |  | EC50 | 51.3 µM
N=C(N)c1ncn([C@@H]2O[C@H](CO)[C@@H](O)[C@H]2O)n1 | MDCK | H5N1 A/gull/PA/4175/83 | 7 µg/mL | inhibition | 90%
O=C1CCCN1C12CC3CC(CC(C3)C1)C2 | MDCK | H2N2 A/Singapore/1/57 | 10 µg/mL | inhibition | 100%
NC12CC3CC(CC(C3)C1)C2 | MDCK cells | H2N3 A/HK/7/87 |  | EC50 | 3.95 µM
C1CCC(C23CC4CC(CC(C4)C2)C3)NC1 | MDCK | H2N2 A2 JAPAN/305/57 |  | EC50 | 3.3 µM
CC1C2CC3CC(C2)CC1C3 | MDCK | H2N2 A/Singapore/1/57 | 0.5 µg/mL | inhibition | 100%
CN1CCCCC1C12CC3CC(CC(C3)C1)C2 | MDCK | H2N2 A2 JAPAN/305/57 |  | EC50 | >978 µM
C1[NH2+]C2CC3CC1CC(C3)C2 | MDCK | H2N2 A/Singapore/1/57 | 1 µg/mL | inhibition | 100%
CC(=O)N[C@H]1[C@H]([C@H](O)[C@H](O)CO)OC(C(=O)O)=C[C@@H]1N | MDCK | A/Singapore/1/57 |  | EC50 | 1.5 µM
NCCC12CC3CC(CC(C3)C1)C2 | MDCK | H2N2 A/Singapore/1/57 | 0.2 µg/mL | inhibition | 100%
O=C(O)C(Cl)P(=O)(O)O |  | A/JAPAN |  | EC50 | 320 µM
C1CC2(CN1)C1CC3CC(C1)CC2C3 | Chick embryo fibroblasts | A2 JAPAN | 100 µM | inhibition | 40–70%
CCNC12CC3CC(C)(CC(C)(C3)C1)C2 | MDCK | H2N2 A/Singapore/1/57 | 10 µg/mL | inhibition | 100%

2 of the rows above, restated:

{"compound": "NC12CC3CC(CC(C3)C1)C2", "cell line": "Chick embryo fibroblasts", "strain": "A2 JAPAN", "tested at": "100 µM", "endpoint": "inhibition", "value": ">70%"}
{"compound": "CN1CCCCC1C12CC3CC(CC(C3)C1)C2", "cell line": "MDCK", "strain": "H2N2 A2 JAPAN/305/57", "endpoint": "EC50", "value": ">978 µM"}

a–b is a range or a potency band. Conditions beyond the fields shown may differ between rows. Percent inhibition refers to the dose given; in toxicity tests it is the harm to the cells. An empty or dashed field is not shown.